How the values were obtained:
Settings in all cases: in vivo, 216 h
[1] = tested on: Mus musculus; assay: Toxicity in mouse B16 cells allografted mouse at 216 mg/kg, ip qd for 9 days; type: organism-based; design: dose 216 mg/kg, route intraperitoneal
Summary of the method: (§1)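 Mice bearing B16 melanoma, dosed ip once daily for 9 days from 24 h after tumor implantation. Toxicity is recorded as the average body weight change at the end of drug treatment.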

[2] = tested on: Mus musculus; assay: Toxicity in mouse B16 cells allografted mouse at 130 mg/kg, ip qd for 9 days; type: organism-based; design: dose 130 mg/kg, route intraperitoneal; summary of the method: as §1
[3] = tested on: Mus musculus; assay: Toxicity in mouse B16 cells allografted mouse at 77.8 mg/kg, ip qd for 9 days

Compound: NC(=O)c1nc[nH]c1/N=N/N(CCCl)CCCl
- Activity [1]: -3.7%
- Activity [2]: -2.9%
- Activity [3]: -2.3%

Source: ChEMBL document CHEMBL3244044, “Synthesis and antitumor activity of halogen-substituted 4-(3,3-dimethyl-1-triazeno)quinolines” (J Med Chem, 1978)
